Compound potency records, mixed from different reports. Data source: NIAID ChemDB in PubChem.

All rows: growth or infection tests; organism: HIV-1; cell line: PBMC; measure: inhibition

An empty or dashed field is not shown.

smiles | strain | changes | method | conditions | tested at | value
CC(=O)N1CCC(C(=O)N(CCCN2CCC(Cc3ccc(C(N)=O)cc3)CC2)c2ccc(C)c(Cl)c2)CC1 | HHA R5 clinical isolate | - | p24 | - | 0.004 µM | 90%
COc1cc(C[C@H](C)[C@H](C)Cc2ccc(O)c(O)c2)ccc1O | WM | - | p24 | - | 30 µg/mL | 87%
O=C(NCc1ccc(F)cc1)c1nc(N2CCCCS2(=O)=O)c2cccnc2c1O | 89.6 | - | p24 | - | 0.009 µM | 95%
CCC(C)[C@H](NC(=O)[C@H](C(C)C)[C@@H](O)[C@H](O)[C@H](CC1CCCCC1)NC(=O)c1ccccc1SCCCCC[C@@H]1SC[C@@H]2NC(=O)NC21)C(=O)NCc1ccccn1 | D34 | - | p24 | - | 0.1 µM | 83%
O=C1N(Cc2ccc(CO)cc2)[C@H](Cc2ccccc2)[C@H](O)[C@@H](O)[C@@H](Cc2ccccc2)N1Cc1ccc(CO)cc1 | RF | - | virus yield | - | 0.14 µM | 90%
C[C@@H]1CC[C@H]2[C@@H](C)C(=O)O[C@@H]3OC4(C)CC[C@@H]1[C@]32OO4 | NL4-3 | - | p24 / ELISA / antigen | - | 10 µM | 76%
C[C@H]1/C=C/[C@@]2(C)CC[C@@H](C(C)(C)O)[C@@H]2[C@@H](O)C[C@](C)(O)/C=C/C1 | 95BRRJ021 R5 | - | p24 | - | 25 µM | 94%
Cc1cn([C@H]2CC[C@@H](CO)O2)c(=O)[nH]c1=O | LAV | - | RT activity | - | 1 µM | 70.9%
CCC[C@@H](c1ccc(C(F)(F)F)cc1)N1CCN(C2(C)CCN(C(=O)c3c(C)ncnc3C)CC2)C[C@@H]1C | JV1083 Clinical isolates | - | - | - | 0.00027 µM | 90%
c1cc(CN2CCCNCCNCCCNCC2)ccc1CN1CCCNCCNCCCNCC1 | SW23 CLADE C R5 | - | p24 | - | 0.5 µM | 0%
OO | BaL | - | p24 | - | 100 µM | 18%
NC(=O)NO | NL4-3 | - | p24 | - | 1000 µM | 70%
CC(C)[C@H](NC(=O)c1ccc2ccccc2n1)C(=O)N[C@@H](Cc1ccccc1)[C@H](O)CN1CC[C@@H](OCc2ccncc2)C[C@H]1C(=O)NC(C)(C)C | Wg3523 | - | p24 | - | 0.091 µM | 90%
Cc1cn([C@H]2C[C@H](N=[N+]=[N-])[C@@H](CO)O2)c(=O)[nH]c1=O | BaL | - | p24 / RT activity | - | 0.0517 µM | 90%
CC(C)=CCOc1cc(NC(=S)c2ccoc2C)ccc1Cl | 92US657 Clinical isolate | - | p24 | - | 0.01422 µg/mL | 95%
Nc1nc(NC2CC2)c2ncn([C@H]3C=C[C@@H](CO)C3)c2n1 | M184V | RT-M184V | p24 | - | 4 µM | 63%
C=C(C)[C@@H]1CC[C@]2(C(=O)NCCCCCCCC(=O)N[C@@H](CC(C)C)[C@H](O)CC(=O)O)CC[C@]3(C)[C@H](CC[C@@H]4[C@@]5(C)CC[C@H](O)C(C)(C)[C@@H]5CC[C@]43C)[C@@H]12 | 89.6 | - | RT activity | - | 1.84 µM | 90%
Nc1ccn([C@H]2C=C[C@@H](CO)O2)c(=O)n1 | LAV | - | RT activity | - | 0.1 µM | 73.3%
CC[C@H](C)C(=O)O[C@H]1C[C@@H](C)C=C2C=C[C@H](C)[C@H](CC[C@@H]3C[C@@H](O)CC(=O)O3)[C@H]21 | NL4-3 | - | p24 | - | 50 µM | 20%
Cc1ccc(-c2ccc3c(c2)C=C(C(=O)Nc2ccc(C[N+](C)(C)C4CCOCC4)cc2)CCC3)cc1 | BaL | - | p24 | - | 0.0128 µM | 90%
Oc1ccc(/C=C/c2cc(O)cc(O)c2)cc1 | EJC-R1 | - | p24 | clinical isolate | 5 µM | 10%
CC(C)Nc1cccnc1N1CCN(C(=O)c2cc3ccccc3[nH]2)CC1 | Seropositive clinical isolate B | - | MTT | - | 1 µM | 100%
Nc1ccn([C@@H]2C=C[C@@H](CO)[C@H](CO)S2)c(=O)n1 | - | - | p24 / antigen | - | 0.1 µM | 25%
CCC[C@@]1(CCc2ccccc2)CC(O)=C([C@H](CC)c2cccc(NS(=O)(=O)c3ccc(C(F)(F)F)cn3)c2)C(=O)O1 | Isolate N. Amer 3 | - | p24 | - | 0.07 µM | 90%
Nc1nc(NC2CC2)c2ncn([C@H]3C=C[C@@H](CO)O3)c2n1 | BRU PITT.(RT-M184V) | RT-M184V | cytopathic effect / MTT | - | 11 µM | 90%
COc1cc(O)c2c(=O)oc3cc(O)cc(C)c3c2c1 | NL4-3 | - | p24 / ELISA | 3 d | 180 µM | 75%
CCc1cc(NCc2nc3c(Cl)ccc(Cl)c3o2)c(=O)[nH]c1C | Clinical isolate (RT M41L T215Y/F) | RT-M41L T215Y/F | p24 | - | 0.05 µM | 90%

Repeating the final 3 entries:

smiles	strain	changes	method	conditions	tested at	value
Nc1nc(NC2CC2)c2ncn([C@H]3C=C[C@@H](CO)O3)c2n1	BRU PITT.(RT-M184V)	RT-M184V	cytopathic effect / MTT	-	11 µM	90%
COc1cc(O)c2c(=O)oc3cc(O)cc(C)c3c2c1	NL4-3	-	p24 / ELISA	3 d	180 µM	75%
CCc1cc(NCc2nc3c(Cl)ccc(Cl)c3o2)c(=O)[nH]c1C	Clinical isolate (RT M41L T215Y/F)	RT-M41L T215Y/F	p24	-	0.05 µM	90%

Inhibition is in % at the dose shown (toxicity tests: loss of growth or viability). Lines come from different laboratories, so protocols vary.